The index is printed as in the source, without its formula.
Test system: SARS-CoV-2 (βCoV/Korea/KCDC/2020)
Format: cell-based
Conditions: original SARS-CoV-2 strain

In the case of `CC(=O)C1=C([O-])C=C2Oc3c(C(C)=O)c(O)c(C)c(O)c3[C@]2(C)C1=O.[Na+]` [NaU, sodium usnate], the “SI (selectivity index)” value is reported as 9.38.
`CC(=O)C1=C(O)[C@]2(C)C(=CC1=O)Oc1c(C(C)=O)c([O-])c(C)c([O-])c12.[K+].[K+]` [KU, potassium usnate] was tested, and the “SI (selectivity index)” value was 6.60.

Reference: PMC9338942, “(+)-Usnic acid and its salts, inhibitors of SARS‐CoV‐2, identified by using in silico methods and in vitro assay” (Scientific Reports, 2022)
